The results in this text go back to patent publication US20240270828A1.

The assay addresses SARS-CoV-2 Spike protein D614G on pseudotyped virus (SARS-CoV-2) (UniProt P0DTC2). Description: cell-based or functional assay.

Substance CV3-25 yielded a Neutralization IC50 (µg/ml), PsV D614G of 1.37 µg/mL.
